The values below come from patent publication US10995358B2, “Rapid antibiotic susceptibility test using membrane fluorescence staining and spectral intensity ratio improved by flow cytometry dead to live population ratio” (POCARED Diagnostics LTD., priority 2017, dated 2021).

This series concerns E. coli. As to the kind of experiment: Flow cytometry SIR/SDL dead/live analysis of FM1-43 stained bacteria under Gentamycin exposure. The format is cell-based. As to conditions: 120 minutes; for Mean FL1-H: 530 nm; for Mean FL3-H: 610 nm. Here is the method:
In this Example, E. coli bacteria samples were incubated with Gentamycin in series dilution from 0 to 32 μgr/ml for 120 minutes. Post incubation the samples were stained with the dye FM1-43 and immediately measured by flow cytometry analysis on light scatter analysis for gating the bacteria and with fluorescence filters: λ1=530/30 and λ2=616/16 nm to analyze the SIR. Moreover gating of the Dead and live bacteria were determined.
From such instant flow-cytometry analysis the SIR and SDL values are evaluated. While performing the same analysis over the whole antibiotic concentrations dilution series the SIR and SDL values were extracted to the concentration series, the data is summarized in Table 5. In Table 5, mean FL1-H and FL3-H is the average of the individual points in the bacteria gated population, i.e. of all measured bacteria. In other words, Fl-1 and FL-3 are merely the fluorescence intensity of each event (bacteria) per a certain fluorescence filter. By referring to FL-1 or FL-3 this means that the mean (average) values of all the events is calculated in the dot plot. FL-1 it is at 530 (±15) nm and FL-3 is at 610 (±10) nm. SIR, is the ratio of FL-3/FL-1. […] So, in order to obtain SIR all that is needed are the FL-3 and FL-1 mean values of the bacterial population in the dot plot. […] By using a predetermined gates, the number of dead and live bacteria can be counted, and then the ratio of dead to live can be calculated and multiplied by the SIR to obtain SDL. The gates are combination of FL-1 and FL-3 and predetermined by control live sample. Plotting SIR, SDL, and DL versus antibiotic concentration is represented in FIG. 15 as (labeled as “SIR”, “SDL”, and “DL”). In FIG. 15, SIR, SDL, and DL are all normalized to the maximum value in the series (column)/dataset and then to 100.
From the data, we can determine the MIC by approximating the MIC as a function of antimicrobial concentration to an error function (FIG. 16) of the following type;
The MIC is the value of the parameter c or a function of it. Specifically, the MIC gets the value of “c”. The value of “c” is the middle of the step in a regular step function of where the step function equals to zero when its values are normalized between −1 to 1.
Background: A flow cytometer gives signals particle by particle.

Regarding gentamicin, the “Mean FL1-H” value reads like this: (Gentamycin 0.25 microg/ml) 6,069.37; (Gentamycin 0.5 microg/ml) 5,756.56; (Gentamycin 1 microg/ml) 6,375.92; (Gentamycin 2 microg/ml) 7,064.36; (Gentamycin 4 microg/ml) 6,507.78; (Gentamycin 8 microg/ml) 6,140.02. Further, the “Mean FL1-H” value by setting is: (Gentamycin 16 microg/ml) 7,029.26; (Gentamycin 32 microg/ml) 5,949.04. Moreover, the “Mean FL3-H” value is 7,420.25 (Gentamycin 0.25 microg/ml); 7,124.38 (Gentamycin 0.5 microg/ml); 9,161.63 (Gentamycin 1 microg/ml); 10,073.67 (Gentamycin 2 microg/ml); 11,180.52 (Gentamycin 4 microg/ml); 13,145.14 (Gentamycin 8 microg/ml). Moreover, the “Mean FL3-H” value is, setting by setting: (Gentamycin 16 microg/ml) 16,724.90; (Gentamycin 32 microg/ml) 13,898.57.
